A mixed list of measured activities; the numbers were collected in NIAID ChemDB.

All rows: whole-cell or culture tests; organism: Herpes simplex virus 1; cell line: PRK; read by: cytopathic effect; read-out: EC50

Neighbouring rows are from separate reports.

smiles,strain or isolate,value
CCc1cn([C@H]2C[C@H](O)[C@@H](CO)O2)c(=O)[nH]c1=O,McIntyre,1.6 µg/mL
Nc1nc(=O)c(/C=C/Br)cn1[C@H]1C[C@H](O)[C@@H](CO)O1,McIntyre,70 µg/mL
Nc1ncnc2c1ncn2C[C@H](O)CO,F,>400 µg/mL
O=c1[nH]c(=O)n([C@H]2CC[C@@H](CO)O2)cc1/C=C/Br,MacIntyre,0.009 µg/mL
O=c1[nH]c(=O)n(C2CC(CO)[C@H](O)C2)cc1I,KOS,0.1 µg/mL
CCc1cn([C@H]2C[C@H](O)[C@@H](COP(=O)(O)O)O2)c(=O)[nH]c1=O,F,1.4 µg/mL
O=c1[nH]c(=O)n([C@H]2C[C@@H](CO)[C@H](O)C2)cc1I,F,7 µg/mL
O=c1[nH]c(=O)n([C@H]2C[C@H](O)[C@@H](CO)O2)cc1/C=C/Br,McIntyre,0.017 µg/mL
Nc1nc(=O)n([C@H]2C[C@H](O)[C@@H](CO)O2)cc1/C=C\Cl,F,2 µg/mL
O=c1[nH]c(=O)n([C@H]2C[C@H](O)[C@@H](COP(=O)(O)O)O2)cc1CCc1ccccc1,McIntyre,30 µg/mL
Nc1nc2c(ncn2COCCO)c(=O)[nH]1,5 (PAA-resistant),2 µg/mL
Nc1ncnc2c1ncn2[C@@H]1O[C@H](CO)[C@@H](O)[C@H]1OP(=O)(O)OC[C@H]1O[C@@H](n2cnc3c(N)ncnc32)[C@H](OP(=O)(O)OC[C@H]2O[C@@H](n3cc(/C=C/Br)c(=O)[nH]c3=O)C[C@@H]2O)[C@@H]1O,VMW1837 (TK-),>100 µg/mL
[N-]=[N+]=NCc1cn([C@H]2C[C@H](O)[C@@H](CO)O2)c(=O)[nH]c1=O,VEX538,10 µg/mL
O=c1[nH]c(=O)n([C@@H]2C[C@H](CO)[C@@H](O)C2)cc1/C=C/Br,KOS,0.05 µg/mL
CSCc1cn([C@H]2C[C@H](O)[C@@H](CO)O2)c(=O)[nH]c1=O,VEX538,20 µg/mL
O=c1[nH]c(=O)n([C@H]2C[C@H](O)[C@@H](CO)O2)cc1CCCl,McIntyre,0.15 µg/mL
O=c1[nH]c(=O)n([C@H]2C[C@H](O)[C@@H](COP(=O)(O)O)O2)cc1/C=C/c1cccc([N+](=O)[O-])c1,KOS,>100 µg/mL
O=c1[nH]c(=O)n([C@H]2C[C@H](O)[C@@H](CO)O2)cc1I,VEO231,0.15 µg/mL
CCc1cn([C@H]2C[C@H](O)[C@@H](CO)O2)c(=O)[nH]c1=O,F,0.2 µg/mL
O=c1[nH]c(=O)n(C2CC(CO)[C@@H](O)C2)cc1/C=C/Br,F,0.06 µg/mL
CCc1cn([C@H]2C[C@H](O)[C@@H](CO)O2)c(=O)[nH]c1=O,VMW1837 (TK-),>400 µg/mL
Nc1ncnc2c1ncn2[C@@H]1O[C@H](CO)[C@@H](O)[C@H]1OP(=O)(O)OC[C@H]1O[C@@H](n2cnc3c(N)ncnc32)[C@H](OP(=O)(O)OC[C@H]2O[C@@H](n3cc(F)c(=O)[nH]c3=O)C[C@@H]2O)[C@@H]1O,B2006 (TK-),1 µg/mL
O=Cc1cn([C@H]2C[C@H](O)[C@@H](CO)O2)c(=O)[nH]c1=O,VDX500,0.4 µg/mL
COc1nc(=O)n([C@H]2C[C@H](O)[C@@H](CO)O2)cc1/C=C/Cl,B2006 (TK-),>200 µg/mL

Repeating the final 2 entries:

smiles | strain or isolate | value
O=Cc1cn([C@H]2C[C@H](O)[C@@H](CO)O2)c(=O)[nH]c1=O | VDX500 | 0.4 µg/mL
COc1nc(=O)n([C@H]2C[C@H](O)[C@@H](CO)O2)cc1/C=C/Cl | B2006 (TK-) | >200 µg/mL

ECn: concentration that inhibits the pathogen or its effect by n%.